Reference: patent US8765722B2 (priority 2009, dated 2014)

Test system: human hepatoma Huh-7 cell line harboring a HCV replicon
Experiment: HCV replicon assay (luciferase) in Huh-7 cells
Format: cell-based
Details: Huh-7 HCV replicon cells, 3 days incubation, inhibition of viral replication

Question: Which “% inhibition at 2 μM” value does the source give for `COP1(=O)CCC(N2CCC(N(c3cc(C#CC(C)(C)C)sc3C(=O)O)C(=O)[C@H]3CC[C@H](C)CC3)CC2)CC1` (stereo partly shown) here?
Answer: 100.0%

This is a selection: effects in other tests are not listed, and their absence says nothing.
